PubChem BioAssay AID504761, Drosophila RNAi Screening Center – 2011

Purpose: 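Genome-wide fly cell screen for genes dengue virus requires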 (primary screen)
Cell system: D.Mel-2 cells from Drosophila
Knock-down reagent: long dsRNA against Drosophila genes
Challenge: infection with dengue virus type 2; dose and infection time not stated
Measured: 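Per well on two replicate plates, imaging gave the percent of cells positive for viral envelope protein, ranked by infection, and a nuclear count of cells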
Scale: infection score: higher = more virus-infected cells; cell count: higher = more cells in the well
Call rule: 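Low infection ranks in the two replicates (chance level up to 0.065) followed by a retest with a 1.5-fold or larger significant decrease, p below 0.05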
Calls: active = confirmed: knock-down lowers infection; inactive = not picked or not confirmed
The screen tested about 22,000 reagents; shown is a random part of those that have a named target and a result. Of all reagents, 116 (0.52%) got an active call. 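Calls depend on retest data that are not deposited; infection was ranked per plate without normalising between plates; the unit of the infection score is not given.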 Raw values are not corrected between plates. Unmarked entries are inactive. A plus sign joins genes that one reagent is predicted to hit. No sequences are given here. Not given: the amount of reagent, the time to read-out.

| target | dsRNA | infection score, replicate 1 | infection score, replicate 2 | cell count, replicate 1 | cell count, replicate 2 |
| --- | --- | --- | --- | --- | --- |
| Hcf (Host cell factor) | DRSC17143 | 7.17 | 7.04 | 5589 | 6067 |
| caly (calypso) | DRSC07182 | 10.1 | 16.9 | 6330 | 6270 |
| CG11291 | DRSC04097 | 5.81 | 5.38 | 6485 | 6808 |
| CG11666 | DRSC22379 | 3.32 | 3.49 | 5935 | 6109 |
| Cul1 (Cullin 1) | DRSC07645 | 11 | 25.1 | 1548 | 3822 |
| Cul1 (Cullin 1) | DRSC26395 | 8.5 | 0.48 | 4273 | 5175 |
| Cyp49a1 (Cytochrome P450 49a1) | DRSC06737 | 4.06 | 6.28 | 6229 | 6890 |
| Cyp49a1 (Cytochrome P450 49a1) | DRSC07367 | 4.32 | 4.31 | 6915 | 6726 |
| VhaAC45RP (VhaAC45-related protein) | DRSC15423 | 2.08 | 1.68 | 6745 | 6591 |
| VhaAC45RP (VhaAC45-related protein) | DRSC26986 | 6.42 | 12.4 | 6344 | 6237 |
| wapl (wings apart-like) | DRSC18851 | 6.88 | 1.74 | 6060 | 6103 |
| wapl (wings apart-like) | DRSC27941 | 18.4 | 14.9 | 5237 | 6215 |
| Ype (Yippee) | DRSC20301 | 6.53 | 4.97 | 6894 | 6759 |
| Lip1 (Lipase 1) | DRSC03364 | 5.72 | 4.34 | 6086 | 6471 |
| slp2 (sloppy paired 2) | DRSC00836 | 3.86 | 2.22 | 6355 | 6982 |
| slp2 (sloppy paired 2) | DRSC26622 | 5.94 | 5.08 | 6588 | 5628 |
| CG10031 | DRSC00286 | 3.68 | 2.12 | 6272 | 6462 |
| GNBP1 (Gram-negative bacteria binding protein 1) | DRSC11169 | 8 | 3.06 | 6676 | 6862 |
| GNBP1 (Gram-negative bacteria binding protein 1) | DRSC21836 | 6.83 | 15 | 6471 | 6048 |
| CG15439 | DRSC00453 | 1.42 | 4.45 | 7898 | 6946 |
| CG15439 | DRSC29801 | 3.78 | 2.53 | 6607 | 6285 |
| Tsp42Ej (Tetraspanin 42Ej) | DRSC06113 | 14.8 | 31.1 | 6850 | 5666 |
| Tsp42Ej (Tetraspanin 42Ej) | DRSC28269 | 21.8 | 6.47 | 4460 | 6567 |
| ct (cut) | DRSC18757 | – | 11.6 | 419 | 3166 |
| ct (cut) | DRSC25100 | 4.23 | 3.88 | 6097 | 6257 |
| dib (disembodied) | DRSC08711 | 7.87 | 5.78 | 5808 | 5969 |
| dib (disembodied) | DRSC26980 | 7.56 | 1.93 | 6189 | 6573 |
| CG6380 | DRSC02950 | 3.75 | 11.5 | 6531 | 6492 |
| Sirup (Starvation-upregulated protein) | DRSC03031 | 0.71 | 8.66 | 6313 | 5578 |
| Sirup (Starvation-upregulated protein) | DRSC29298 | 25.6 | – | 2415 | 202 |
| CG9512 | DRSC20189 | 6.24 | 6.28 | 6603 | 6133 |
| CG13679 | DRSC10037 | 23.7 | 7.57 | 5014 | 872 |
| CG13679 | DRSC22749 | 27.2 | 25.4 | 6504 | 6687 |
| pre-mod(mdg4)-U + mod(mdg4) | DRSC13476 | 2.25 | 4.24 | 5782 | 5332 |
| S6kII (Ribosomal protein S6 kinase II) | DRSC20645 | 5.61 | 7 | 6575 | 6543 |
| Acox57D-d (acyl-Coenzyme A oxidase at 57D distal) | DRSC04561 | 4.87 | 6.67 | 6675 | 5848 |
| Acox57D-d (acyl-Coenzyme A oxidase at 57D distal) | DRSC30108 | 6.93 | 23.1 | 6119 | 5210 |
| Adgf-D (Adenosine deaminase-related growth factor D) | DRSC16521 | 2.66 | 12.4 | 6350 | 6356 |
| alphaKap4 (alpha Karyopherin-4) | DRSC09823 | 0.34 | 2.36 | 5836 | 6010 |
| Rac2 | DRSC11262 | 8.59 | 6.13 | 6238 | 6555 |
| Rac2 | DRSC25086 | 8.77 | 2.65 | 6591 | 5896 |
| CG13083 | DRSC02187 | 9.27 | 1.36 | 5362 | 6242 |
| CG13083 | DRSC28424 | 6.85 | 16.5 | 3080 | 5225 |
| Irk1 (Inwardly rectifying potassium channel 1) | DRSC16106 | 1.71 | 7.1 | 6534 | 6209 |
| mthl5 (methuselah-like 5) | DRSC16155 | 2.41 | 2.03 | 6883 | 6899 |
| CG15120 | DRSC06542 | 1.83 | 4.76 | 6520 | 6408 |
| RNaseP:RNA (Ribonuclease P RNA) | DRSC22967 | 2.69 | 3.25 | 6323 | 6956 |
| CG1924 | DRSC19823 | 2.21 | 2.81 | 6701 | 7043 |
| CG1924 | DRSC24870 | 4.14 | 6.39 | 6674 | 6405 |
| CG42827 + CG42828 | DRSC16116 | 1.64 | 10.8 | 6895 | 6329 |
| fuss (fussel) | DRSC17200 | 7.35 | 3.39 | 6191 | 6871 |
| fuss (fussel) | DRSC21452 | 2.93 | 15.9 | 5486 | 4309 |
| CG15617 | DRSC06570 | 10.5 | 10.9 | 6713 | 5262 |
| CG15617 | DRSC27918 | 8.07 | 3.46 | 2714 | 6700 |
| bsf (bicoid stability factor) | DRSC02035 | 4.99 | 9.41 | 6135 | 5963 |
| SuUR (Suppressor of Under-Replication) | DRSC11292 | 4.02 | 2.97 | 5678 | 6235 |
| ctrip (circadian trip) | DRSC12242 | 5.48 | 5.88 | 7195 | 6891 |
| ctrip (circadian trip) | DRSC12287 | 9.37 | 12.3 | 6597 | 6618 |
| ctrip (circadian trip) | DRSC22449 | 0.73 | 6.71 | 7232 | 6991 |
| ctrip (circadian trip) | DRSC23512 | 24.6 | 13.4 | 5515 | 3041 |
| ctrip (circadian trip) | DRSC27589 | 2.29 | 10.5 | 7409 | 6330 |

Entries above whose target name starts with G or g:
| target | dsRNA | infection score, replicate 1 | infection score, replicate 2 | cell count, replicate 1 | cell count, replicate 2 |
| --- | --- | --- | --- | --- | --- |
| GNBP1 (Gram-negative bacteria binding protein 1) | DRSC11169 | 8 | 3.06 | 6676 | 6862 |
| GNBP1 (Gram-negative bacteria binding protein 1) | DRSC21836 | 6.83 | 15 | 6471 | 6048 |
